Assay results published in publication PMC5584973, “Characterization of novel bangle lectin from Photorhabdus asymbiotica with dual sugar-binding specificity and its effect on host immunity” (PLoS Pathogens, 2017).
Certain results were filed several times, with different values. Only these are listed. The source may hold further records. Values given together differ, and nothing given here explains why; they may come from other doses, times, organisms or constructs than stated.

Biological target: PHL (Photorhabdus asymbiotica, UniProt C7BLE4)
Assay: SPR inhibition of PHL binding to immobilized L-fucoside
Conditions: from IC50
Method: SPR inhibition experiments were performed using the same conditions described above. The PHL lectin (0.25 μM final concentration) was mixed with various concentrations of inhibitors (1M – 0.01 mM) and injected onto the sensor chip. Pure PHL lectin was used as a control (0% inhibition). The response of the lectin bound to the sugar surface at equilibrium was plotted against the concentration of inhibitor in order to determine IC50.

Structure (SMILES): CO[C@@H]1O[C@@H](C)[C@@H](O)[C@@H](O)[C@@H]1O [Me-α-L-Fuc, Methyl-α-L-fucopyranoside]
- Potency relative to L-Fuc: about 10 and 9.39
